system: S. aureus ATCC29213; test: Human serum binding effect (MIC with and without human serum); format: cell-based, Staphylococcus aureus; conditions: Ratio of MIC value determined with and without human serum added for S. aureus ATCC29213; human serum:MHB 1:1

Compound	Human serum binding effect
NCCSCc1ncccc1SC1=C(C(=O)O)N2C(=O)[C@@H](NC(=O)/C(=N\O)c3nc(N)sc3Cl)[C@H]2SC1 [Cmpd 1, (7R)-7-[(Z)-2-(2-amino-5-chlorothiazol-4-yl)-2-(hydroxyimino)acetamido]-3-[2-(2-aminoethylthiomethyl)pyrid-3-ylthio]-3-cephem-4-carboxylic acid]	2
NCCSCc1ncccc1SC1=C(C(=O)O)N2C(=O)[C@@H](NC(=O)/C(=N\O)c3nsc(N)n3)[C@H]2SC1 [Cmpd 2, (7R)-7-[(Z)-2-(5-amino-1,2,4-thiadiazol-3-yl)-2-(hydroxyimino)acetamido]-3-[2-(2-aminoethylthiomethyl)pyrid-3-ylthio]-3-cephem-4-carboxylic acid]	2
N=C(N)NCCSCc1ncccc1SC1=C(C(=O)O)N2C(=O)[C@@H](NC(=O)/C(=N\O)c3nsc(N)n3)[C@H]2SC1 [Cmpd 2-R, (7R)-7-[(Z)-2-(5-amino-1,2,4-thiadiazol-3-yl)-2-(hydroxyimino)acetamido]-3-[2-(2-guanidinoethylthiomethyl)pyrid-3-ylthio]-3-cephem-4-carboxylic acid]	2
N=C(N)NCCSCc1ncccc1SC1=C(C(=O)O)N2C(=O)[C@@H](NC(=O)/C(=N\O)c3nc(N)sc3Cl)[C@H]2SC1 [Cmpd 2-S, (7R)-7-[(Z)-2-(2-amino-5-chlorothiazol-4-yl)-2-(hydroxyimino)acetamido]-3-[2-(2-guanidinoethylthiomethyl)pyrid-3-ylthio]-3-cephem-4-carboxylic acid]	2
NCCSCc1ccncc1SC1=C(C(=O)O)N2C(=O)[C@@H](NC(=O)/C(=N\O)c3nc(N)sc3Cl)[C@H]2SC1 [Cmpd 3, (7R)-7-[(Z)-2-(2-amino-5-chlorothiazol-4-yl)-2-(hydroxyimino)acetamido]-3-[4-(2-aminoethylthiomethyl)pyrid-3-ylthio]-3-cephem-4-carboxylic acid]	2
NCCSCc1ccncc1SC1=C(C(=O)O)N2C(=O)[C@@H](NC(=O)/C(=N\O)c3nsc(N)n3)[C@H]2SC1 [Cmpd 4, (7R)-7-[(Z)-2-(5-amino-1,2,4-thiadiazol-3-yl)-2-(hydroxyimino)acetamido]-3-[4-(2-aminoethylthiomethyl)pyrid-3-ylthio]-3-cephem-4-carboxylic acid]	4

— patent publication EP1222194B1, “7-ACYLAMINO-3-HETEROARYLTHIO-3-CEPHEM CARBOXYLIC ACID ANTIBIOTICS AND PRODRUGS THEREOF” (priority 1999, dated 2001)
